Pooled drug test results. Numbers come from NIAID ChemDB, via PubChem.

Common to all: target-level tests; agent: HIV; target: Reverse transcriptase; endpoint: IC50

Blank or dashed fields: not listed here. ICn: concentration for n% inhibition. Neighbouring rows are from separate reports.

structure,changes,read by,result
CC(=O)c1ccc(C)cc1NC(C(N)=O)c1c(Cl)cccc1Cl,RT-V106A P225H,RT activity,16 µM
CC(C)=CCN1Cc2cccc3[nH]c(=S)n(c23)C[C@@H]1C,RT-E138K,nucleotide incorporation,4.8 µM
C#CC1(COP(=O)(O)OP(=O)(O)OP(=O)(O)O)CCC(n2ccc(N)nc2=O)O1,,nucleotide incorporation / radiometric,0.05 µM
CO[P@](=O)(c1cc(C)cc(/C=C/C#N)c1)c1c(C(N)=O)[nH]c2ccc(Cl)c(F)c12,V106M,,0.23 µM
Cc1cc(C)cc([C@]23SCCN2C(=O)c2ccccc23)c1,RT-K101A,ELISA,4.8 µM
Cc1c(C(C)c2c(F)cccc2F)nc(NC2CCCC2)[nH]c1=O,Y188L,nucleotide incorporation / radiometric,1.1 µM
CCOc1ccccc1N1CCN(C(=O)c2cc3cc4c(cc3[nH]2)OCO4)CC1,RT-Y181C P236L,,>50 µM
C[C@H](Cn1cnc2c(N)ncnc21)OCP(=O)(O)OP(=O)(O)OP(=O)(O)O,,,0.45 µM
Nc1nc2c(ncn2[C@H]2CC[C@@H](COP(=O)(O)OP(=O)(O)OP(=O)(O)O)O2)c(=O)[nH]1,RT-E138K(P51 ONLY),,0.015 µM
c1ccc(C2SCc3nc4ccccc4n32)cc1,RT-K103N Y188L,,>50 µM
O=C1c2ccccc2C2(c3ccccc3)SCCN12,RT-Y188L,ELISA,>200 µM
Cc1cn([C@H]2C=C[C@@H](COP(=O)(O)OP(=O)(O)OP(=O)(O)O)O2)c(=O)[nH]c1=O,,nucleotide incorporation / radiometric,0.008 µM
CC(C)Nc1cccnc1N1CCN(C(=O)c2cc3ccccc3[nH]2)CC1,RT-G190E,nucleotide incorporation,440 µM
CCc1c([Se]c2ccccc2)n(COCc2ccccc2)c(=O)[nH]c1=O,RT-V90A,RT activity,0.1 µM
Cc1cn([C@@H]2O[C@H](CO[Si](C)(C)C(C)(C)C)[C@@]3(OS(=O)(=O)C=C3N)[C@H]2O[Si](C)(C)C(C)(C)C)c(=O)[nH]c1=O,RT-N137H,nucleotide incorporation / radiometric,1.1 µM
COc1ccc2c(c1)N(C(=O)OC(C)C)[C@@H](CSC)C(=S)N2,RT-D67N K70R T215F K219Q L100I,RT activity,0.013 µg/mL
CC(C)=CCOc1cc(NC(=S)c2ccoc2C)ccc1Cl,RT-P140A,nucleotide incorporation / radiometric,0.045 µM
Cc1cn([C@@H]2O[C@H](CO[Si](C)(C)C(C)(C)C)C3(OS(=O)(=O)C=C3N)[C@H]2O[Si](C)(C)C(C)(C)C)c(=O)n(C)c1=O,RT-V106A P225H,RT activity,>828 µM
Nc1ncnc2c1ncn2[C@H]1CC[C@@H](COP(=O)(O)OP(=O)(O)OP(=O)(O)O)O1,,,0.18 µM
CCOc1ccccc1N1CCN(C(=O)c2cc3ccccc3[nH]2)CC1,RT-Y181C P236L,,>50 µM
O=c1[nH]cnc2c1ncn2[C@H]1CC[C@@H](CO)O1,RT-L74V,RT activity,2.9 µM
CC(C)=CCN1Cc2cccc3[nH]c(=S)n(c23)C[C@@H]1C,,nucleotide incorporation,3.83 µM
CCc1c(Sc2ccccc2)n(COCc2ccccc2)c(=O)[nH]c1=O,RT-V90A,RT activity,0.1 µM
CC[C@H]1C(=O)Nc2ccc(F)cc2N1C(=O)OC(C)C,RT-N137K,nucleotide incorporation / radiometric,0.02 µM
CCNc1cccnc1N1CCN(C(=O)c2cc3cc4c(cc3[nH]2)OCO4)CC1,RT-Y181C P236L,,>50 µM
Cc1cn([C@@H]2O[C@H](CO[Si](C)(C)C(C)(C)C)C3(OS(=O)(=O)C=C3N)[C@H]2O[Si](C)(C)C(C)(C)C)c(=O)n(C)c1=O,RT-Y181I,nucleotide incorporation,>750 µM
C#C[C@@]1(COP(=O)(O)OP(=O)(O)OP(=O)(O)O)CC[C@H](n2ccc(N)nc2=O)O1,,nucleotide incorporation / radiometric,0.05 µM
Cc1cn([C@@H]2O[C@H](CO[Si](C)(C)C(C)(C)C)[C@@]3(OS(=O)(=O)C=C3N)[C@H]2O[Si](C)(C)C(C)(C)C)c(=O)[nH]c1=O,RT-E138K,nucleotide incorporation,>155 µM
Cc1cn([C@@H]2O[C@H](CO[Si](C)(C)C(C)(C)C)C3(OS(=O)(=O)C=C3N)[C@H]2O[Si](C)(C)C(C)(C)C)c(=O)n(C)c1=O,RT-E138K(P66 ONLY),,2.6 µM
CCc1c(Sc2ccccn2)n(COCc2ccccc2)c(=O)[nH]c1=O,RT-V90A,RT activity,0.07 µM
Nc1ccn([C@H]2CC[C@@H](COP(=O)(O)OP(=O)(O)OP(=O)(O)O)O2)c(=O)n1,RT-K65R,,23.4 µM
NS(=O)(=O)c1ccc(CCNC(=O)Cc2cccs2)cc1,K103N/L1001,nucleotide incorporation,5.8 µM